{"source": "paper PMC10715591", "about": "“EspB and HtpG interact with the type III-A CRISPR/Cas system of Mycobacterium tuberculosis” (Frontiers in Molecular Biosciences, 2023)", "molecular_target": "T1, MtbHtpG (high-temperature protein G) (Mycobacterium tuberculosis H37Rv)", "T1 construct": "also called Chaperone htpG", "test": "SPR", "settings": "both partners purified"}
{"binder": "ESX-1 secretion-associated protein EspB (natural protein, also called Esx-1 secreted protein B) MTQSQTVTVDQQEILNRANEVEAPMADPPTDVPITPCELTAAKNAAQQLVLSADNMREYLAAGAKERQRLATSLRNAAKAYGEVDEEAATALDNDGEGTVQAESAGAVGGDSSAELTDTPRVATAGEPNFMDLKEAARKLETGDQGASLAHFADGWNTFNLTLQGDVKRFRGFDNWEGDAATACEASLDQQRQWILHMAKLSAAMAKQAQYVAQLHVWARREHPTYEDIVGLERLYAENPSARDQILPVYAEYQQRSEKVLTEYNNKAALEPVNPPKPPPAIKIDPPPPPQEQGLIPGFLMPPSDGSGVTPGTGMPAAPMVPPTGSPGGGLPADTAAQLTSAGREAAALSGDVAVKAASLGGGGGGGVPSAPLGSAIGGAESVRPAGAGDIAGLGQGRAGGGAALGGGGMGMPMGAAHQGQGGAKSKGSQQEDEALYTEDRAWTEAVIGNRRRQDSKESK", "values": [{"measurement": "Kd", "value": 8.88, "unit": "nM"}, {"measurement": "koff", "value": 0.00199, "unit": "s⁻¹"}, {"measurement": "kon", "value": 224000, "unit": "M⁻¹ s⁻¹"}]}
